Construct, isoform or probe ends are uncertain for at least one entry.
Test system: VapBC complex (VapB:His6-VapC), hetero-octamer VapB4C4 (Shigella flexneri (plasmid pMYSH6000))
Test: EMSA
Settings: two distinct complexes, 2.5 ng/ul VapBC, 0.1 mg/ml salmon sperm DNA; recombinant protein; protein details: His6 on VapC; label: 5'-32P on SF-EMSA-f strand; probe letters rebuilt from the primers and the genome

Question: Does “GGCCGGCCCAGCGTTCTCCCATGCTGCCCAGCACATAGTAATTATCCTTGTCGGTATAATAGTTCCCGACACTTCCGGCCGATCTGACCTGCGCAATACTCATCATAAACGTATATCCCTTTGACATATCCCGGCATCAATCCCACAATGGATATACACAAGACATATCCACATAAGGAGGCAAATAATGGAAACCACCGTATTTCTCAGCA (double strand) [DNA I]” bind?
Answer: binds

— publication PMC3384007, “Crystal Structure of the VapBC Toxin–Antitoxin Complex from Shigella flexneri Reveals a Hetero-Octameric DNA-Binding Assembly” (Journal of Molecular Biology, 2011)
